Laboratory results published in PMC3321071 (Bioorganic & medicinal chemistry letters, 2012).

Target: gp41 NHR hydrophobic pocket (receptor Fe(env2.0)3) (Human immunodeficiency virus type 1 group M subtype B, UniProt P04578)
Conditions: binding assay, inhibition of CHR peptide binding

Substance	Ki
H2N-Asn-[Trp]-Trp-OH	800 nM
H2N-Asp-[Trp]-Trp-OH	1300 nM
